According to patent US20180263927A1:

Target: PSA (prostate specific antigen) (UniProt P07288)
Assay: cell-based or functional assay

Row | Substance | cytotoxicity IC50, 48 hour exposure, Prostate LnCAP cells (positive PSA) [nM] | cytotoxicity IC50, 48 hour exposure, Prostate DuPro cells (trace PSA) [nM] | cytotoxicity IC50, 48 hour exposure, Prostate PC3 cells (negative PSA, control) [nM]
1 | Analog 215 (Illudin S-Pro-Ser-Ser-Gln-Chg-Ser-Ser-Hyp-Ac) (peptide) | > 20000 | – | –
2 | Analog 216 (Illudin M-Pro-Ser-Ser-Gln-Chg-Ser-Ser-Hyp-Ac) (peptide) | 190 | 280 | 190
3 | Analog 210 (Ac-Hyp-Ser-Ser-Chg-Gln-Ser-Ser-Pro-O-(CH2)3-acylfulvene) (peptide) | 810 | 3500 | 4700
